Experimental findings from US7902182B2, “HIV integrase inhibitors” (priority 2005, dated 2011) are described below.

One test addresses HIV-integrase (Human immunodeficiency virus type 1 group M subtype B, UniProt P12497). Briefly: HIV-Integrase Inhibition Activity (SPA bead strand transfer assay). As to conditions: read-out: Activity (IC50 against HIV-integrase); recombinant integrase, biotin labeled substrate DNA on SPA beads, P33 labeled target DNA. How it is done: HIV-Integrase InhibitionActivity. To evaluate in-vitro activity against HIV-integrase, 5 pmole of biotin labeled substrate DNA was bound to 100 μg of Streptavidin coated PVT SPA beads (Amersham Pharmacia Biotech). Recombinant integrase (0.26 ng) was incubated with the beads for 90 min at 37° C. Unbound enzyme was removed by washing the complex followed by addition of inhibitors and 0.1 fmol of P33 labeled target DNA. The reaction was stopped by adding EDTA to a final concentration of 10 mM. Samples were counted in TopCountNXT (Packard) and the CPM was used as a measure of integration. The reaction condition was as described in A. Engelman and R. Craigie, J. Virol. 69, 5908-5911 (1995). The sequences of substrate and target DNA were described in Nucleic Acid Research 22, 1121-1122 (1994).
Activity equal to A refers to a compound having IC50=0.002 to 0.10 μM while B and C denote compounds having IC50=0.1 to 1.0 μM and IC50≧1.0 μM respectively.

The subject of test [1] is recombinant NL-Rluc virus. Briefly: Inhibition of HIV replication (NL-Rluc luciferase reporter virus). As to conditions: read-out: Activity (EC50, inhibition of HIV replication); NL-RLuc pseudotype virus; serum condition of the tabulated values not stated (10% FBS, 15 mg/ml human serum albumin/10% FBS or 40% human serum/5% FBS); at least 2 experiments. Here is the method: Inhibition of HIV replication. A recombinant NL-Rluc virus was constructed in which a section of the nef gene from NL4-3 was replaced with the Renilla Luciferase gene. The NL-RLuc virus was prepared by co-transfection of two plasmids, pNLRLuc and pVSVenv. The pNLRLuc contains the NL-Rluc DNA cloned into pUC18 at the pvuII site, while the pVSVenv contains the gene for VSV G protein linked to an LTR promoter. Transfections were performed at a 1:3 ratio of pNLRLuc to pVSVenv on 293T cells using the LipofectAMINE PLUS kit from Invitrogen (Carlsbad, Calif.) according to manufactures instruction, and the pseudotype virus generated was titered in MT-2 cells.
Susceptibility of viruses to compounds was determined by incubation in the presence of serial dilutions of the compound. The 50% effective concentration (EC50) was calculated by using the exponential form of the median effect equation where (Fa)=1/[1+(ED50/drug conc.)^m] (Johnson V A, Byington R T. Infectivity Assy. In Techniques in HIV Research. ed. Aldovini A, Walker B D. 71-76. New York: Stockton Press. 1990). The anti-viral activity of compounds was evaluated under three serum conditions, 10% FBS, 15 mg/ml human serum albumin/10% FBS or 40% human serum/5% FBS, and the results from at least 2 experiments were used to calculate the EC50 values. […]

The IC50 is the concentration that inhibits the measured activity by half. What is called EC50 is the midpoint of the concentration-response curve. As for `O=C(NCc1ccc(F)cc1S(=O)(=O)N1CCN(CC2CC2)CC1)c1nc2n(c(=O)c1O)CCOC21CCOCC1`, the IC50 on HIV-integrase fell in the range of 2 to 100 nM. In addition, the EC50 in test [1] fell in the range of 3 to 100 nM.
As for `CC(C)N1CCN(S(=O)(=O)c2cc(F)ccc2CNC(=O)c2nc3n(c(=O)c2O)CCOC32CCOCC2)CC1`, the IC50 at HIV-integrase was in the range of 2 to 100 nM. In test [1], the EC50 was 3 to 100 nM.
